Measured values from several laboratories, pooled; numbers as filed in NIAID ChemDB.

All rows: enzyme or target tests; species: HIV-1; protein: Reverse transcriptase; method: nucleotide incorporation / radiometric; read-out: IC50

Lines come from different laboratories, so protocols vary. ICn is the concentration giving n% inhibition. Two numbers with a dash give a range or band. Blank or dashed fields: not listed here.

smiles,strain,changes,value
COC(=O)c1ccc(NC(=O)CSc2nnnn2-c2c(C)cc(C)cc2C)c(Cl)c1,,,<2 µM
CCN1c2ncc(CCOc3cccc4c3CNC(=O)N4C)cc2C(=O)Nc2c(C)ccnc21,IIIB,,<0.05 µM
CCN1c2ncc(CCOc3ccc(-c4ccccc4)cc3)cc2C(=O)N(C)c2cccnc21,IIIB,RT-K103N Y181C,0.05–0.1 µM
Cc1cc(C)c(CS(=O)c2cccc[n+]2[O-])c(C)c1,,,>500 µg/mL
CCN1c2ncccc2C(=O)N(C)c2ccc(-c3cc[nH]c3)nc21,,RT-Y188L,<1 µM
Cc1cn([C@H]2CC[C@@H](COP(=O)(O)OP(=O)(O)OP(=O)(O)O)O2)c(=O)[nH]c1=O,,,0.4 µM
CCCN1c2ncccc2C(=O)N(C)c2ccc(-c3cn[nH]c3)nc21,,RT-Y188L,<1 µM
N#Cc1cccc(-n2nnnc2SCC(=O)Nc2ccccc2[N+](=O)[O-])c1,,,<2 µM
CCN1c2ncc(CCOc3cccc4c3CNC(=O)N4)cc2C(=O)N(C)c2cccnc21,IIIB,RT-K103N Y181C,>0.1 µM
N[C@@H](Cc1ccc(OS(=O)(=O)[O-])cc1)C(=O)O.[Na+],IIIB,,36 µg/mL
CCN1c2ncc(CCOc3ccc(-c4ccc(F)c(C(=O)O)c4)cc3)cc2C(=O)N(C)c2cccnc21,IIIB,RT-K103N Y181C,>0.1 µM
CC(C(=O)CN1CCN(c2cccc(Cl)c2)CC1)N1C(=O)c2ccccc2C1=O,,,43.77 µM
CC(C)N1c2ccccc2N(C)C(=O)c2cnn(C)c21,IIIB,,>30 µM
Cc1cc(C)cc(S(=O)(=O)c2c(C(N)=O)[nH]c3ccc(Cl)cc23)c1,,RT-V179D,0.05 µM
CCN1c2ccccc2N(C)C(=O)c2cncnc21,IIIB,,>30 µM
CCN1c2ncc(CCOc3ccc(-c4ccc(Cl)c(CC(=O)O)c4)cc3C)cc2C(=O)N(C)c2cccnc21,IIIB,RT-K103N Y181C,<0.05 µM
CCN1c2ncc(CCOc3cccc4c3C(C)(C)OC(=O)N4)cc2C(=O)N(C)c2cccnc21,IIIB,RT-K103N Y181C,>0.1 µM
CC(C(=O)CN1CCN(c2ccc([N+](=O)[O-])cc2)CC1)N1C(=O)c2ccccc2C1=O,,,29.8 µM
Nc1ccn([C@H]2CC[C@@H](COP(=O)(O)OP(=O)(O)OP(=O)(O)O)O2)c(=O)n1,,RT-Q151M,2.3 µM
CCN1c2ncc(CCOc3cccc4c3CNC(=O)O4)cc2C(=O)N(C)c2cccnc21,IIIB,,<0.05 µM
Cc1cc(C)c(-n2nnnc2SCC(=O)Nc2ccc(F)cc2F)c(C)c1,,,<2 µM
CCN1c2ncc(CCOc3ccc(NC(=O)c4ccc(C(=O)O)cc4)cc3C)cc2C(=O)N(C)c2cccnc21,IIIB,,<0.05 µM
COC(=O)c1ccc(NC(=O)CSc2nnnn2-c2c(C)cc(C)cc2C)c(C)c1,,,<2 µM
CCN1c2ncc(CCOc3ccc(-c4cc[n+]([O-])cc4)cc3C)cc2C(=O)N(C)c2cccnc21,IIIB,RT-K103N Y181C,<0.05 µM
CN1C(=O)c2cccnc2N(C2CC2)c2nc(-c3cc[nH]c3)ccc21,,RT-Y188L,<1 µM
Cc1cc(C)c(-n2nnnc2SCC(=O)Nc2cccc(Cl)c2C#N)c(C)c1,,,<2 µM
CCN1c2ncc(CCOc3ccc4[nH]c(=O)[nH]c4c3)cc2C(=O)N(C)c2cccnc21,IIIB,RT-K103N Y181C,>0.1 µM
CCCN1c2nc(-c3cn[nH]c3)ccc2NC(=O)c2cccnc21,,RT-Y181C,<1 µM
Cn1c(Oc2ccccc2-c2ccccc2)cc(=O)n(O)c1=O,,,>25 µM
CCN1C(=O)c2cccnc2N(C)c2nc(-c3ccc[nH]3)ccc21,WT,,<1 µM
CCN1c2ncc(CCOc3cccc4c3CN(O)C4=O)cc2C(=O)N(C)c2cccnc21,IIIB,RT-K103N Y181C,>0.1 µM
CCN1c2ncccc2C(=O)N(C)c2ccc(-c3ccc[nH]3)nc21,WT,,<1 µM
CCN1c2ncc(CCOc3ccc(-c4ccc(CC(=O)O)cc4OC)cc3C)cc2C(=O)N(C)c2cccnc21,IIIB,RT-K103N Y181C,<0.05 µM
CCN1c2ncccc2C(=O)N(C)c2ccc(-c3c[nH]c4ccccc34)nc21,,RT-Y188L,<1 µM
Cc1ccccc1-n1nnnc1SCC(=O)Nc1ccccc1Cl,,,<2 µM
CCN1c2ncc(CCOc3ccc(-c4csc(C(=O)O)c4)cc3C)cc2C(=O)N(C)c2cccnc21,IIIB,RT-K103N Y181C,<0.05 µM
Cc1ccc(C)c(CS(=O)c2ccc(Cl)c[n+]2[O-])c1,,,>500 µg/mL
CC(C(=O)CN1CCN(c2ccccc2)CC1)N1C(=O)c2ccccc2C1=O,,,486 µM
CCN1c2ncc(CCOc3ccc(S(=O)(=O)NCC(=O)O)c4ccccc34)cc2C(=O)N(C)c2cccnc21,WT,,<0.1 µM
Cc1cc(C)c(-n2nnnc2SCC(=O)Nc2cccc(Br)n2)c(C)c1,,,<2 µM
CCN1c2ncccc2C(=O)N(C)c2ccc(-c3ccn[nH]3)nc21,,RT-Y181C,<1 µM
CCN1c2ncc(CCOc3cccc4c3COC(=O)N4)cc2C(=O)Nc2c(C)ccnc21,IIIB,,<0.05 µM
CCN1c2ccccc2N(C)C(=O)c2cnc(C)nc21,IIIB,,>30 µM
O=C1Nc2c(OS(=O)(=O)O)cc(Cl)cc2[C@@](C#CC2CC2)(C(F)(F)F)O1,RF,,>12.5 µM
CC(C(=O)CN1CCN(c2ccc(F)cc2)CC1)N1C(=O)c2ccccc2C1=O,,,35.2 µM
Cn1c(Nc2cccc(C3CCOC3)c2)cc(=O)n(O)c1=O,,,>25 µM
CCN1c2ccccc2N(C)C(=O)c2cnc(-c3ccccc3)nc21,IIIB,,>30 µM
CCN1c2ncc(CCOc3ccc(C(=O)N=c4ccn(O)cc4)cc3C)cc2C(=O)N(C)c2cccnc21,IIIB,,<0.05 µM
Cc1cc(C)c(-n2nnnc2SCC(=O)Nc2ccc(Br)cc2F)c(C)c1,,,<2 µM
CCN1c2ccccc2N(C)C(=O)c2cnn(-c3ccccc3)c21,IIIB,,30 µM

4 of the rows above, restated:

{"smiles": "Cc1cc(C)c(-n2nnnc2SCC(=O)Nc2cccc(Br)n2)c(C)c1", "value": "<2 µM"}
{"smiles": "CC(C(=O)CN1CCN(c2cccc(Cl)c2)CC1)N1C(=O)c2ccccc2C1=O", "value": "43.77 µM"}
{"smiles": "CCN1c2ncccc2C(=O)N(C)c2ccc(-c3c[nH]c4ccccc34)nc21", "changes": "RT-Y188L", "value": "<1 µM"}
{"smiles": "CCN1c2ncc(CCOc3ccc(C(=O)N=c4ccn(O)cc4)cc3C)cc2C(=O)N(C)c2cccnc21", "strain": "IIIB", "value": "<0.05 µM"}